Experimental data from patent US20220002699A1 (PLANET BIOTECHNOLOGY, published 2022).

Target: SARS-CoV-2 Spike protein S1 domain (Wuhan, wild type) (SARS-CoV-2)

B1: ACE2-([…],H34S)-(GGGGS)2-Fc4 (Fc fusion)
chain: not shown
B1 was tested, and the “EC50 (read off the curve)” value was ~3 nM and ~4 nM.

Several values for one entry are separate records, joined by “and”; a condition that tells them apart may be missing. Equal values may be shown once.
